This is an account of results in article PMC9181312.

Test [1] concerns the target Omi-12. Description: SPR. The note with it: domain or fragment.
For test [2], the target named is Omi-20. Description: SPR. The note with it: domain or fragment.

Regarding “His-tagged SARS-CoV-2 Omicron BA.4/5 RBD (from UniProt P0DTC2 333-526)”, the values for the Kd in test [1] and in test [2] were 0.126 µM and 0.0072 µM, respectively.
